Results published in patent US20120157519A1 (priority 2009, published 2012).

Test system: H5N1 (avian) influenza virus
Experiment: In vitro cell infection assay in MDCK cells, H5N1 (ELISA)
Details: 0.8 μg/ml

## Cl[TeH]1(Cl)(Cl)OCCO1 [AS101, ammonium trichloro(dioxyethylene-O,O′)tellurate]
24 hours before, concomitantly with, or 24 hours after infection, ELISA 72 hours post-infection
  H5N1 virus infection, each tested administration time: inhibition
Compared with the other administration times
  H5N1 virus infection, administered concomitantly with the virus: strongest inhibition
